Publication PMC6753678, “Fueling Open Innovation for Malaria Transmission-Blocking Drugs: Hundreds of Molecules Targeting Early Parasite Mosquito Stages” (Frontiers in Microbiology, 2019)

Test system: P. falciparum female gametocytes
Assay: P. falciparum female gametogenesis assay (Pf FGAA)
[1] = unified cytotox / Pf FGAA IC50, <10-fold selectivity red, >10-fold green
[2] = unified cytotox / Pf FGAA IC50, red: <10-fold selectivity, green: >10-fold
[3] = unified cytotox / IC50, <10-fold red, >10-fold green

Structure (SMILES) | Assay tox ratio Pf FGAA [1] | further results
Cc1cc(-c2ccc(CNC3Cc4ccccc4C3)cc2)ccc1S(=O)(=O)NCCN1CCCC1.O=C(O)C(F)(F)F [TCMDC-132243] | 2.90 | 
Nc1nc(N)c2cc(NC(=O)c3ccc(Cl)c(Cl)c3)ccc2n1 [TCMDC-141982] |  | Assay tox ratio Pf FGAA [2]: 1.35
CC(C)c1ccc(CN2CCC(CNC(=O)c3cc(-c4cccc(Cl)c4)cs3)C2)cc1.O=C(O)C(F)(F)F (stereo not shown) [TCMDC-134438] | 10.89 | 
COc1ccc(NC(=O)Nc2ccc(Nc3nc(C)cc(N4CCCC4)n3)cc2)cc1 [TCMDC-124958] | 11.05 | 
COc1ccc(NC(=O)c2ccc(OCCCCCCCOc3ccc(C(=O)Nc4ccc(OC)c(N5CCN(C)CC5)c4)cc3)cc2)cc1N1CCN(C)CC1.O=C(O)C(=O)O [TCMDC-139007] |  | Assay tox ratio Pf FGAA [2]: 3.14
NCCCNc1nc(Nc2ccc(C(F)(F)F)cc2F)c2c(=O)[nH]ccc2n1.O=C(O)C(F)(F)F [TCMDC-135056] | 5.83 | 
c1ccc(C23N=C(Nc4nc5ccccc5[nH]4)NC2(c2ccccc2)NC(Nc2nc4ccccc4[nH]2)=N3)cc1 (stereo not shown) [TCMDC-139082] |  | Assay tox ratio Pf FGAA [2]: 411.98
COc1ccccc1-c1nc2c(ccc3nc(N)nc(N)c32)[nH]1 [TCMDC-137976] | 2.53 | 
CC(NCCc1cccc(Cl)c1)C(O)c1ccc(OCCCCCCOc2ccc(C(O)C(C)NCCc3cccc(Cl)c3)cc2)cc1 (stereo not shown) [TCMDC-139334] |  | Assay tox ratio Pf FGAA [2]: 2.63
Cc1ccc(-c2nc3cc(NC(=O)c4ccc([N+](=O)[O-])o4)ccc3o2)cc1Cl [TCMDC-123657] | 1.27 | 
Cc1cccc2nc(-c3ccc(-c4ccc(CNCc5ccc(CN)cc5)cc4)cc3)[nH]c12.O=C(O)C(F)(F)F [TCMDC-132813] | 8.37 | 
Cc1ccc(S(=O)(=O)N(CCCNCc2cccc(O)c2)c2ccccc2)cc1 [TCMDC-138022] |  | Assay tox ratio Pf FGAA [3]: 34.82
CC(C)(CNC(=O)[C@@H]1CCCCN1)c1nc(-c2ccc(Cl)c(O)c2)c(-c2ccncc2)[nH]1.Cl [TCMDC-141079] |  | Assay tox ratio Pf FGAA [2]: 24.69
Cl.Clc1ccc(CNCCCCCCCNCc2ccc(Cl)c(Cl)c2)cc1Cl [TCMDC-138075] | 6.57 | 
COc1ccc(CNC2Cc3ccccc3C2)cc1-c1ccc(S(=O)(=O)NCCN2CCCC2)c(F)c1.O=C(O)C(F)(F)F [TCMDC-132266] | 3.10 | 
CC(C)(C)Nc1cc(C2CC2)nc(-c2ccccn2)n1 [TCMDC-124453] | 1041.57 | 
CC(C)N1CCN(C(CN2CCN(CCCOc3ccc(-c4ccccc4)cc3)CC2)c2ccc(F)cc2)CC1.Cl (stereo not shown) [TCMDC-135497] | 1.62 | 
Cl.N=C1C=C(N)C(=O)c2ccccc21 [TCMDC-141992] |  | Assay tox ratio Pf FGAA [2]: 0.0437
Fc1ccc2nc(Nc3nc(-c4ccccn4)cs3)sc2c1 [TCMDC-125540] | 1073.05 | 
Cc1ccc2c(c1)c(C1CCN(C(=O)c3ccc([N+](=O)[O-])o3)CC1)cn2C [TCMDC-124787] | 13.60 | 
COc1ccc2nc3cc(Cl)ccc3c(N)c2c1.Cl [TCMDC-125835] |  | Assay tox ratio Pf FGAA [3]: 5.73
CCN(CCNS(C)(=O)=O)c1ccc(N)c(C)c1.O.O=S(=O)(O)O [TCMDC-125836] | 22.91 | 
Nc1nc(N)c2c(ccc3c2ccn3Cc2cccc(F)c2)n1 [TCMDC-137810] |  | Assay tox ratio Pf FGAA [3]: 0.08
C=CCc1cccc(CN2CCC(c3cc(=O)[nH]c(-c4ccccn4)n3)CC2)c1O [TCMDC-124851] | 6.59 | 

Structure (SMILES) | Assay tox ratio Pf FGAA [1] | further results
Oc1c(C(Nc2nc3ccccc3s2)c2ccccc2)ccc2cccnc12 (stereo not shown) [TCMDC-125565] |  | Assay tox ratio Pf FGAA [3]: 0.77
COc1ccc2ccccc2c1CCCCN1CCN(CC(c2ccc(F)cc2)N2CCC2)CC1.O=C(O)C(F)(F)F (stereo not shown) [TCMDC-135867] | 0.74 | 
CC1Cc2ccccc2N1S(=O)(=O)c1cccc(C(=O)Nc2nc(-c3ccccn3)cs2)c1 (stereo not shown) [TCMDC-124559] | 146.27 | 
CC(=O)Nc1ccc2[nH]cc(C3CCN(CC4CCN(C(=O)/C=C/c5ccc(Cl)c(Cl)c5)CC4)CC3)c2n1 [TCMDC-140112] |  | Assay tox ratio Pf FGAA [2]: 9.15
Cc1ccc(Cn2ncc(N3CCCNCC3)c(Cl)c2=O)cc1NC(=O)Nc1ccc(-c2ccccc2)cc1 [TCMDC-141924] |  | Assay tox ratio Pf FGAA [2]: 4.53
Cc1ccc(Cl)c2sc(N3CCN(C(=O)c4ccc([N+](=O)[O-])o4)CC3)nc12 [TCMDC-124311] | 17.93 | 
CC(C)(CN)c1nc(-c2ccc(Br)c(O)c2)c(-c2ccncc2)[nH]1.Cl [TCMDC-140680] |  | Assay tox ratio Pf FGAA [3]: 55.36
O=C(NC1CCN(CCN2CCC(c3c[nH]c4ccccc34)CC2)CC1)c1ccc(-c2ccc(C(F)(F)F)cc2)cc1 [TCMDC-138845] |  | Assay tox ratio Pf FGAA [2]: 2.59
CCCc1cc(=O)[nH]c(-n2nc(C)cc2NC(=O)CC(c2ccccc2)c2ccccc2)n1 [TCMDC-124940] | 76.75 | 
CCOc1ccc(-n2nc3c(Cl)nnc(-c4ccccc4)c3c2-c2ccccc2)cc1 [TCMDC-123899] | 106.43 | 
CC1(CCN2CCC(c3c[nH]c4cnccc34)CC2)CCCc2c(Br)cccc2C1=O.Cl (stereo not shown) [TCMDC-141171] |  | Assay tox ratio Pf FGAA [2]: 3.03
COc1ccc(-c2csc3ncnc(Cl)c23)cc1 [TCMDC-123805] | 0.38 | 
FC(F)(F)c1ccc2[nH]c(-c3ccc(-c4ccc(CNCCN5CCNCC5)cc4)cc3)nc2c1.O=C(O)C(F)(F)F [TCMDC-132865] | 11.65 | 
CC(C)(C)c1ccc(CNC(=O)c2cc(CNC3CCNCC3)ccc2O)cc1 [TCMDC-140775] |  | Assay tox ratio Pf FGAA [2]: 6.99
Br.CCc1c(CCNCCCCCCNCCc2ccc(Br)cc2)ccc(O)c1O [TCMDC-132044] | 6.15 | 
CCCC(N)C(=O)NC1CCN(c2c(F)c(N)c3c(=O)c(C(=O)O)cn4c3c2Oc2ccccc2-4)C1.Cl (stereo not shown) [TCMDC-125701] |  | Assay tox ratio Pf FGAA [3]: 2.30
CC(C)(C)c1ccc(CN2CCC(CNC(=O)c3cc(-c4cccc(F)c4)cs3)C2)cc1.O=C(O)C(F)(F)F (stereo not shown) [TCMDC-134444] | 5.01 | 
CN(CCc1ccccc1)c1ncc(-c2cccc(CNCCC3CCCN3C)c2)cn1 (stereo not shown) [TCMDC-133143] | 2.13 | 
CC(C)(C)c1ccc(CNCCOc2ccc(Nc3nnc(-c4ccc(-c5ncc[nH]5)cc4)o3)c3ccccc23)cc1.O=C(O)C(F)(F)F [TCMDC-138667] |  | Assay tox ratio Pf FGAA [2]: 9.58
O=C(c1ccc([N+](=O)[O-])o1)N1CCN(c2nc3c(Cl)cccc3s2)CC1 [TCMDC-124316] | 38.14 | 
Cc1ccc(-n2c(Sc3ncnc4sccc34)nnc2N2CCCC2)cc1 [TCMDC-125247] |  | Assay tox ratio Pf FGAA [3]: 165.77
CC(Cc1ccc(NC(=O)c2ccc(CNCCc3ccccc3)cc2)cc1)NCCc1cccc(Cl)c1.Cl (stereo not shown) [TCMDC-139867] |  | Assay tox ratio Pf FGAA [2]: 2.02
CN1CCCC1CCNCc1cccc(-c2cnc(N3CCCC(C)(C)C3)nc2)c1 (stereo not shown) [TCMDC-133144] | 2.77 | 
CCCC(=O)NC(c1ccc(C)cc1)c1ccc2cccnc2c1O (stereo not shown) [TCMDC-123605] | 5.32 | 

Structure (SMILES) | Assay tox ratio Pf FGAA [1] | further results
COc1cccc(-c2csc(C(=O)NCC3CCN(Cc4ccc(C(C)C)cc4)C3)c2)c1.O=C(O)C(F)(F)F (stereo not shown) [TCMDC-134439] | 8.39 | 
O=C(O)C(F)(F)F.O=S(=O)(NCCN1CCCC1)c1ccc(-c2ccc(CNC3Cc4ccccc4C3)cc2)s1 [TCMDC-132234] | 2.56 | 
Cc1cc(N)c2cc(NC(=O)c3cc(C(F)(F)F)cc(C(F)(F)F)c3)ccc2n1.Cl [TCMDC-139377] |  | Assay tox ratio Pf FGAA [2]: 3.01
CN(C)CCCNCc1ccc(-c2ccc(C(F)(F)F)cc2)cc1 [TCMDC-140011] |  | Assay tox ratio Pf FGAA [2]: 2.92
OCCN1CCN(c2ccc(Nc3ccnc4cc5ccccc5cc34)cc2)CC1 [TCMDC-123915] | 1.63 | 
N#Cc1ccc(-c2ccc(C(=O)NCC3CCN(CCN4CCC(c5ccc6c(c5OCC(N)=O)CCCC6)CC4)CC3)cc2)cc1 [TCMDC-134563] | 4.88 | 
c1ccc(-c2nc(Nc3nc4ccccc4[nH]3)[nH]c2-c2ccccc2)cc1 [TCMDC-139099] |  | Assay tox ratio Pf FGAA [2]: 18.85
Cc1sc2nc(CN3CCCC3)nc(-n3c(NCCO)nc4ccccc43)c2c1C [TCMDC-124811] | 3.65 | 
NCCCCNc1cc(-c2ccnc(Nc3cccc(Cl)c3)n2)ccn1 [TCMDC-134683] | 0.46 | 
COC(=O)c1ccc(-c2ccc(-c3cccnc3)cc2C)cc1 [TCMDC-139074] |  | Assay tox ratio Pf FGAA [2]: 6.20
CN(C)CCOc1ccc(NC(=O)NC(C)(C)c2nc(-c3ccc(Cl)c(O)c3)c(-c3ccncc3)[nH]2)cc1.Cl [TCMDC-140744] |  | Assay tox ratio Pf FGAA [2]: 19.59
CCCCSc1c(CNCCCCCCNCc2ccc3ccccc3c2SCCCC)ccc2ccccc12.CS(=O)(=O)O [TCMDC-137825] | 2.85 | 
CCOc1cc2ccccc2cc1CNCCCCCCNCc1cc2ccccc2cc1OCC.CS(=O)(=O)O [TCMDC-137940] | 4.71 | 
COc1ccc(CNC2CCN(C)CC2)cc1-c1ccc(S(=O)(=O)NCc2ccccc2)s1.O=C(O)C(F)(F)F [TCMDC-132253] | 3.13 | 
CN(C)c1ccc(-c2csc(C(=O)NCC3CCN(Cc4ccc(C(C)(C)C)cc4)C3)c2)cc1.O=C(O)C(F)(F)F (stereo not shown) [TCMDC-134449] | 11.99 | 
COc1cc2c(OC)cccc2cc1CNCCCCCCNCc1cc2cccc(OC)c2cc1OC.CS(=O)(=O)O [TCMDC-137945] | 2.69 | 
COc1cc2nc(N3CCC(CNC(=O)c4ccc(-c5ccc(Cl)cc5)cc4)CC3)nc(N)c2cc1OC [TCMDC-138718] |  | Assay tox ratio Pf FGAA [2]: 4.74
Nc1ccc2[nH]cc(C3CCN(CC4CCC(NC(=O)/C=C/c5ccc(Cl)c(Cl)c5)CC4)CC3)c2n1 (stereo not shown) [TCMDC-140064] |  | Assay tox ratio Pf FGAA [2]: 18.13
CC(C)N1CCN(C(CN2CCN(CCCOc3ccccc3-c3ccccc3)CC2)c2ccc(F)cc2)CC1.Cl (stereo not shown) [TCMDC-135499] | 3.06 | 
CC(C)c1ccc(CN2CCC(CNC(=O)c3cc(-c4ccc(N(C)C)cc4)cs3)C2)cc1.O=C(O)C(F)(F)F (stereo not shown) [TCMDC-134440] | 8.27 | 
Clc1ccc(/N=C(/NCCCCCCCN/C(=N\c2ccc(Cl)cc2)Nc2ccc(Cl)cc2)Nc2ccc(Cl)cc2)cc1 [TCMDC-137529] | 3.42 | 
COc1cc(/C=C(\C2=NC(=O)CS2)c2nc3cccnc3n2C)ccc1O [TCMDC-135917] | 29.44 | 
